Pooled drug test results. Numbers come from NIAID ChemDB, via PubChem.

Shared fields: tests in culture; agent: Mycobacterium tuberculosis

Lines come from different laboratories, so protocols vary. Inhibition is in % at the dose shown (toxicity tests: loss of growth or viability). ECn is the concentration giving n% inhibition of infection, replication or growth. MIC bound comes from a single tested concentration. An empty or dashed field is not shown.

compound | mutations | tested at | strain | setting | measure | method | result
Cc1ccc2oc(=O)n(-c3cccc(F)c3)c(=S)c2c1 | - | - | My 331/88 | 21 d | MIC | - | 8 µM
c1ccc(C(NCCNC2CCCc3ccccc32)c2ccccc2)cc1 | - | - | - | - | MIC | - | 50 µM
CCOC(=O)Nc1cc2c(c(N)n1)N=C(c1ccccc1)CS2 | - | - | H37Rv | - | EC50 | - | <12.5 µg/mL
CO[C@H]1/C=C/O[C@@]2(C)Oc3c(C)c(O)c4c(=O)c(c5oc6cc(N7CCN(CC(C)C)CC7)cc(=O)c6nc5c4c3=C2O)NC(=O)/C(C)=C\C=C\[C@H](C)[C@H](O)[C@@H](C)[C@@H](O)[C@@H](C)[C@H](OC(C)=O)[C@@H]1C | - | - | 3064 (rifampin-sensitive) | - | MIC | - | 0.012 µg/mL
Cc1ccc(-n2c(=O)oc3ccc(F)cc3c2=S)cc1 | - | - | My 331/88 | 21 d | MIC | - | 2 µM
CC[C@H]1OC(=O)[C@H](C)[C@@H](O[C@H]2C[C@@](C)(OC)[C@@H](O)[C@H](C)O2)[C@H](C)[C@@H](O[C@@H]2O[C@H](C)C[C@H](N(C)C)[C@H]2O)[C@](C)(O)C[C@@H](C)C(=O)[C@H](C)[C@@H](O)[C@]1(C)O | - | - | ATCC 35820 | - | MIC | - | >8 µg/mL
Cc1ccc(Nc2ccc(Nc3ccc(C)cc3C)c3c2C(=O)c2ccccc2C3=O)c(C)c1 | - | - | H37Rv | - | MIC | - | >100 µg/mL
O=C1c2ccccc2C(=O)c2sc(Nc3cccc(Cl)c3)nc21 | - | - | H37Rv | - | MIC bound | BACTEC | ≤12.5 µg/mL
NC1CCN(c2c(F)cc3c(=O)c(C(=O)O)cn(C4CC4)c3c2Cl)C1 | - | - | ATCC 35827 | - | MBC | - | 0.125 µg/mL
O=c1oc2ccc(Br)cc2c(=S)n1-c1ccc(Br)cc1 | - | - | My 331/88 | 14 d | MIC | - | 1 µM
COc1cc(O)c2c(c1)C(=O)C1=C(C2=O)C(C)OC(C)C1 | - | 12.5 µg/mL | H37Rv | - | inhibition | BACTEC | -1%
CCOC(=O)Nc1cc2nc(-c3ccccc3)c(-c3ccccc3)nc2c(OCC)n1 | - | - | H37Rv | - | EC50 | - | <12.5 µg/mL
OCC(O)C(O)C(O)c1cnc2ccccc2n1 | - | - | H37Rv | - | MIC | - | >100 µg/mL
COc1ccc(/C=C2\Oc3c(Br)c(OC)cc(OC)c3C2=O)cc1 | - | 12.5 µg/mL | H37Rv | - | inhibition | BACTEC | -9%
COc1ccc(CCc2cc(OC)c3ccccc3n2)cc1OC | - | - | MT3 | - | MIC | - | 50 µg/mL
FC(F)(F)c1ccc(-n2c(=S)oc3ccc(Br)cc3c2=S)cc1 | - | - | My 331/88 | 14 d | MIC | - | 4 µM
O=[N+]([O-])c1ccc(CO)cc1 | - | - | H37Rv | - | MIC | - | 100 µg/mL
NCC[C@H](O)C(=O)N[C@@H]1C[C@H](N)[C@@H](O[C@H]2O[C@H](CN)[C@@H](O)[C@H](O)[C@H]2O)[C@H](O)[C@H]1O[C@H]1O[C@H](CO)[C@@H](O)[C@H](N)[C@H]1O | - | - | 4R | - | MIC | - | 2.5 µg/mL
c1ccc(CCCc2ccccn2)cc1 | - | - | H37Rv | - | MIC | - | >100 µg/mL
CC(=O)OC[C@H]1O[C@@H](Oc2cc(OC(C)=O)c3c(=O)cc(-c4ccc(OC(C)=O)cc4)oc3c2C2C(=O)c3c(OC(C)=O)cc(OC(C)=O)cc3OC2c2ccc(OC(C)=O)cc2)[C@H](OC(C)=O)[C@@H](OC(C)=O)[C@@H]1OC(C)=O | - | 12.5 µg/mL | H37Rv | - | inhibition | - | 0%
COc1ccc(CNCCNCCc2ccccc2Cl)c(OC)c1 | - | - | - | - | MIC | - | 50 µM
Nc1ccc(S(=O)(=O)C(F)(F)F)cc1 | - | - | H37Rv | - | MIC | - | 50 µg/mL
COc1ccc(CNCCNCCc2ccc(F)cc2)cc1OC | - | - | - | - | MIC | - | 50 µM
CCN(CCNS(C)(=O)=O)c1ccccc1 | - | - | H37Rv | - | MIC | - | >100 µg/mL
C=CCN(CCNCCC(c1ccccc1)c1ccccc1)C1CCCC1 | - | - | - | - | MIC | - | 25 µM
COC(=O)C(Cc1cc(OC)c(OC)c(OC)c1)(NC(=O)c1ccccc1)P(=O)(OC)OC | - | - | H37Rv | - | MIC bound | BACTEC | >12.5 µg/mL
CCOC(=O)Nc1cc(N)c([N+](=O)[O-])c(NCC(O)CN(C)c2ccccc2)n1 | - | - | H37Rv | - | EC50 | - | >12.5 µg/mL
O=C(N/N=C/NN/C=N/NC(=O)C1CCS(=O)(=O)C1)C1CCS(=O)(=O)C1 | - | 12.5 µg/mL | H37Rv | - | inhibition | BACTEC | -5%
O=C(/C=C/c1cc2ccccc2[nH]1)c1ccncc1 | - | - | - | - | EC50 | - | >12.5 µg/mL
CO[C@H]1/C=C/O[C@@]2(C)Oc3c(C)c(O)c4c(=O)c(c5oc6cc(N7CCN(C(C)C)CC7)cc(=O)c6nc5c4c3=C2O)NC(=O)/C(C)=C\C=C\[C@H](C)[C@H](O)[C@@H](C)[C@@H](O)[C@@H](C)[C@H](OC(C)=O)[C@@H]1C | - | - | 3064 (rifampin-sensitive) | - | MBC | - | 0.025 µg/mL
Cc1cc(C(C#N)c2ccc(Cl)cc2)c(Cl)cc1NC(=O)c1cc(I)cc(I)c1O | - | 12.5 µg/mL | H37Rv | - | inhibition | BACTEC | -41%
Nc1ccc([N+](=O)[O-])cc1S(=O)(=O)O | - | - | H37Rv | - | MIC | - | >100 µg/mL
O=C(/C=C/c1ccccc1)c1cccc2ccccc12 | - | - | - | - | EC50 | - | >12.5 µg/mL
Nc1cccc2c(=O)[nH][nH]c(=O)c12 | - | - | H37Rv | - | MIC | - | >100 µg/mL
NCC[C@H](O)C(=O)N[C@@H]1C[C@H](N)[C@@H](O[C@H]2O[C@H](CN)[C@@H](O)[C@H](O)[C@H]2O)[C@H](O)[C@H]1O[C@H]1O[C@H](CO)[C@@H](O)[C@H](N)[C@H]1O | - | - | TN3806 (W1) | - | MIC | - | >256 µg/mL
CO[C@H]1/C=C/O[C@@]2(C)Oc3c(C)c(O)c4c(O)c(c5c(c4c3C2=O)NC2(CCN(CC(C)C)CC2)N=5)=NC(=O)/C(C)=C\C=C\[C@H](C)[C@H](O)[C@@H](C)[C@@H](O)[C@@H](C)[C@H](OC(C)=O)[C@@H]1C | - | - | Strain 82 (R529K) | - | MIC | - | 0.25 µg/mL
O=C(/C=C/c1ccccc1)c1ccc(I)cc1O | - | - | H37Rv | - | EC50 | - | >12.5 µg/mL
COC(=O)Nc1cnc(C(=O)O)c(C)c1-c1ccc(OC)c(OC)c1OCc1ccccc1 | - | 12.5 µg/mL | H37Rv | - | inhibition | BACTEC | 0%
NC(=O)c1cnccn1 | - | - | Isolate 10348 monodrug-resistant | - | MIC | - | >300 µg/mL
CN(C)c1ccc(-c2cccc(-c3ccccc3)n2)cc1 | - | - | H37Rv | - | MIC | - | >100 µg/mL
COc1ccc2c(c1)OC(c1ccccc1)CC2=O | - | - | - | - | EC50 | - | >12.5 µg/mL
CCC(N)C(=O)NC(CO)C(=O)O | - | - | H37Rv | - | MIC | BACTEC | ≥12.8 µg/mL
C[C@H]1COc2c(N3CCN(C)CC3)c(F)cc3c(=O)c(C(=O)O)cn1c23 | - | - | 10S | - | MIC | - | 0.5 µg/mL
Cc1cc(=O)oc2c(C)c3oc4ccncc4c3cc12 | - | - | H37Rv | - | MIC bound | BACTEC | >12.5 µg/mL
CCOC(=O)Nc1cc(N=[N+]=[N-])c2n[nH]nc2n1 | - | 12.5 µg/mL | H37Rv | - | inhibition | - | 0%
O=[N+]([O-])c1c(C=Nc2ccccc2)oc(-c2ccc3c(c2)OCO3)c1-c1ccc2c(c1)OCO2 | - | - | H37Rv | - | MIC bound | BACTEC | >12.5 µg/mL
Cc1ccc(C)n1CCn1c(C)ccc1C | - | - | H37Rv | - | MIC | - | 50 µg/mL
C[C@H]1COc2c(N3CCN(C)CC3)c(F)cc3c(=O)c(C(=O)O)cn1c23 | - | - | Isolate 17 | - | MIC | - | 0.25 µg/mL
NCC[C@H](O)C(=O)N[C@@H]1C[C@H](N)[C@@H](O[C@H]2O[C@H](CN)[C@@H](O)[C@H](O)[C@H]2O)[C@H](O)[C@H]1O[C@H]1O[C@H](CO)[C@@H](O)[C@H](N)[C@H]1O | - | - | MDR17 | - | MIC | broth dilution / resazurin | 1 µg/mL
CC[C@H]1OC(=O)[C@H](C)[C@@H](O[C@H]2C[C@@](C)(OC)[C@@H](O)[C@H](C)O2)[C@H](C)[C@@H](O[C@@H]2O[C@H](C)C[C@H](N(C)C)[C@H]2O)[C@](C)(O)C[C@@H](C)CN(C)[C@H](C)[C@@H](O)[C@]1(C)O | - | - | ATCC 35828 | - | MIC | - | >8 µg/mL
CCOC(=O)c1ccccn1 | - | - | H37Rv | - | MIC | - | 50 µg/mL
Cc1cc2nc3c(=O)[nH]c(=O)nc-3n(CCOC(=O)CCC(=O)O)c2cc1C | - | - | H37Rv | - | MIC bound | BACTEC | >12.5 µg/mL
NC1CCN(c2nc3c(cc2F)c(=O)c(C(=O)O)cn3-c2ccc(F)cc2F)C1 | - | - | ATCC35838 | - | MBC | - | >8 µg/mL
CCCCCCCCOCC(=O)O | - | - | H37Rv | - | MIC | - | 100 µg/mL
Cc1[nH]n(-c2cc(S(=O)(=O)O)ccc2Cl)c(=O)c1N=Nc1ccc(C(=O)Nc2ccc(S(=O)(=O)O)cc2)cc1 | - | - | H37Rv | - | MIC bound | BACTEC | >12.5 µg/mL
O=C1c2ccccc2OC(c2ccccc2)C1(Br)Br | - | 12.5 µg/mL | H37Rv | - | inhibition | - | 0%
O=C1NC(=S)N/C1=C\c1ccccc1 | - | - | H37Rv | - | MIC | - | >100 µg/mL
C[C@H]1C[C@H](N)CN1c1cc2c(cc1F)c(=O)c(C(=O)O)cn2-c1ccc(F)cc1F | - | - | ATCC 35830 | - | MIC | - | 1 µg/mL
CC(=O)Nc1ccc(S(=O)(=O)c2ccc(N)cc2)cc1 | - | - | H37Rv | - | MIC | - | >100 µg/mL
CO[C@H]1/C=C/O[C@@]2(C)Oc3c(C)c(O)c4c(O)c(c(/C=N/N5CCN(C)CC5)c(O)c4c3C2=O)NC(=O)/C(C)=C\C=C\[C@H](C)[C@H](O)[C@@H](C)[C@@H](O)[C@@H](C)[C@H](OC(C)=O)[C@@H]1C | - | - | Isolate 11 | - | MIC | - | >32 µg/mL
CCCCCCCCCCCNCCNCCc1ccccc1F | - | - | - | - | MIC | - | 50 µM
O=c1cc(-c2cccc(-c3cccc4c(=O)cc(-c5ccccc5)oc34)c2)oc2ccccc12 | - | - | H37Rv | - | EC50 | - | ~12.5 µg/mL
CCC(C)N | - | - | H37Rv | - | MIC | - | >100 µg/mL
CC(=O)Nc1ccc(/C=N/NC(=S)NC2CN3CCC2CC3)cc1 | - | - | H37Rv | - | MIC | BACTEC | ≥12.5 µg/mL
CCC(C)(C)NCCNCc1ccc(OC)c(OC)c1 | - | - | - | - | MIC | - | 25 µM
Oc1ccccc1C=NCCN=Cc1ccccc1O | - | - | H37Rv | - | MIC | - | 50 µg/mL
COc1ccc(C2CC(=O)c3cc(F)ccc3O2)cc1 | - | 12.5 µg/mL | - | - | inhibition | - | 0%
COc1ccc(CCC2CCc3ccccc3N2C)cc1OC | - | - | MT3 | - | MIC | - | >322 µg/mL
C[C@@H]1[C@H]2C[C@@H](C[C@H]1NCCNCCCCc1ccccc1)C2(C)C | - | - | - | - | MIC | - | 50 µM
CCOC(=O)Nc1cc(NC(C)CCCN(CC)CC)c2ncc(-c3ccc(Cl)cc3)nc2n1 | - | - | H37Rv | - | EC50 | - | <12.5 µg/mL
CN(C)c1cc(O)c(-n2c3cc(=O)c(N(C)C)cc-3nc3ccccc32)cc1O | - | 12.5 µg/mL | H37Rv | - | inhibition | BACTEC | 31%
COc1ccc(OC)c(CCNCCNCc2ccccc2Sc2ccccc2CO)c1 | - | - | - | - | MIC | - | 50 µM
COc1ccc2c(c1)Sc1c(ccc3ccccc13)N2CCCN(C)C | - | - | H37Rv | - | MIC bound | BACTEC | ≤12.5 µg/mL
CO[C@H]1/C=C/O[C@@]2(C)Oc3c(C)c(O)c4c(O)c(c(/C=N/N5CCN(C6CCCC6)CC5)c(O)c4c3C2=O)NC(=O)/C(C)=C\C=C\[C@H](C)[C@H](O)[C@@H](C)[C@@H](O)[C@@H](C)[C@H](O)[C@@H]1C | - | - | Isolate 900145 drug-susceptible | - | MIC | - | 0.5 µg/mL
Nc1ccc(C(c2ccc(N)cc2)C(Cl)(Cl)Cl)cc1 | - | - | H37Rv | - | MIC | - | >100 µg/mL
Nc1cc2oc3ccccc3c2c2cccnc12 | - | - | H37Rv | - | MIC | BACTEC | >12.5 µg/mL
CC(=O)NC[C@H]1CN(c2ccc(N3CCOCC3)c(F)c2)C(=O)O1 | SM-resistant | - | Clinical isolate BRF 7 | - | MIC | resazurin | 0.25 µg/mL
CCCC(=O)OCc1cc(=O)n(C)c2c3c4c(cc12)c(C)cc(=O)n4CO3 | - | - | TAC-R | - | MIC | - | 0.2 µg/mL
Cc1cccc(C)[n+]1C.[I-] | - | - | H37Rv | - | MIC | - | >100 µg/mL
C[C@@H]1O[C@@H](Oc2c(-c3ccc(O)c(O)c3)oc3cc(O)cc(O)c3c2=O)[C@H](O)[C@H](O)[C@H]1O | - | - | H37Rv | - | MIC | BACTEC | ≥128 µg/mL
COC(=O)CN.Cl | - | - | H37Rv | - | MIC | - | >100 µg/mL
N=C1OCCN1/N=C/c1ccc([N+](=O)[O-])o1 | - | - | H37Rv | - | MIC bound | resazurin | >6.25 µg/mL
NC[C@H]1O[C@H](O[C@H]2[C@H](O)[C@@H](O[C@H]3O[C@H](CO)[C@@H](O)[C@H](N)[C@H]3O)[C@H](N)C[C@@H]2N)[C@H](O)[C@@H](O)[C@@H]1O | - | - | Isolate 12 | - | MIC | - | 2 µg/mL
O=C(N/N=C/c1ccc(O)c(S(=O)(=O)O)c1)C(=O)N/N=C/c1ccc(O)c(S(=O)(=O)O)c1 | - | 12.5 µg/mL | H37Rv | - | inhibition | BACTEC | -12%
CNc1ccccc1 | - | - | H37Rv | - | MIC | - | >100 µg/mL